Measured values from several laboratories, pooled; numbers as filed in NIAID ChemDB.

Shared fields: growth or infection tests; species: Mycobacterium tuberculosis

A number after MIC or MFC names an inhibition level or a share of isolates. Neighbouring rows are from separate reports. Blank or dashed fields: not listed here. ECn is the concentration giving n% inhibition of infection, replication or growth. Inhibition is in % at the dose shown (toxicity tests: loss of growth or viability). MIC bound comes from a single tested concentration.

smiles,strain or isolate,cells,method,read-out,dose,result
O=C(NCCBr)c1ccc([N+](=O)[O-])cc1,H37Rv,,,MIC,,>100 µg/mL
CC(=O)Nc1ccc(C(=O)NN)cc1,,,,MIC,,100 µg/mL
COc1ccc(/C=N/Nc2cc(C)nc3cc(Cl)ccc23)c2ccccc12,H37Rv,VERO,,inhibition,12.5 µg/mL,100%
CC(=O)C(N=Nc1cccc2c1C(=O)c1ccccc1C2=O)C(=O)Nc1ccc(C)cc1C,H37Rv,,BACTEC,inhibition,12.5 µg/mL,-4%
C=C/C(C)=C/[C@@]1(C)SC(=O)C(C)=C1O,TRC-resistant,,,MIC,,5 µg/mL
CN1c2ccccc2CCC1CCc1ccc2c(c1)OCO2,MT9,,,MIC,,>100 µg/mL
O=C(N/N=C/c1ccccc1)c1cc(Cl)ccc1Cl,,,,MIC,,100 µg/mL
COC(=O)c1cc(Nc2ccc(O)c3c2C(=O)c2c([N+](=O)[O-])ccc(O)c2C3=O)cc(C(=O)OC)c1,H37Rv,,BACTEC,MIC bound,,>12.5 µg/mL
O=C(O)C(O)(C1CCCCC1)C1CCCCC1,H37Rv,,,MIC,,50 µg/mL
Cc1ccc(S(=O)(=O)NNC(=O)c2ccccc2NCCO)cc1,H37Rv,,BACTEC,inhibition,12.5 µg/mL,8%
Oc1ccc(NC(=S)Nc2ccc(O)cc2)cc1,H37Rv,,,MIC,,>100 µg/mL
CC(CNCCNC(C)(C)CO)c1ccccc1,,,,MIC,,50 µM
COc1ccc(-n2c(=O)oc3cc(C)ccc3c2=O)cc1,CNCTC MY331/88,,,MIC,,31 µM
COc1ccc2c(C)cc(N/N=C/c3ccccn3)nc2c1,H37Rv,,BACTEC,MIC bound,,≤12.5 µg/mL
C[C@@H]1[C@H]2C[C@@H](C[C@H]1NCCN[C@H]1C[C@H]3CC[C@]1(C)C3(C)C)C2(C)C,,,,MIC,,12.5 µM
O=C(Nc1ccc(C2=NCCCN2)cc1)c1ccc(C(=O)Nc2ccc(C3=NCCCN3)cc2)nc1,H37Rv,,BACTEC,inhibition,12.5 µg/mL,98%
O=C(/C=C/c1ccccc1)c1cc(Br)ccc1O,H37Rv,,,EC50,,<12.5 µg/mL
COc1ccc(-n2c(=O)oc3ccc(F)cc3c2=O)cc1,CNCTC MY331/88,,,MIC,,31 µM
CC(=O)Nc1ccc(NS(C)(=O)=O)cc1,H37Rv,,,MIC,,>100 µg/mL
C=CCC1(C(C)Cc2ccc(OC)c(OC)c2)CC(OC)C=CC1=O,H37Rv,,BACTEC,MIC,,≥12.5 µg/mL
O=[N+]([O-])c1ccc(CSSCc2ccc([N+](=O)[O-])cc2)cc1,H37Rv,,,MIC,,>100 µg/mL
CCCCC(CC)CN1CN(CC(CC)CCCC)CC(C)(NCCN[C@H](CO)Cc2ccccc2)C1,,,,MIC,,25 µM
C[C@@H]1CN(c2c(F)c(N)c3c(=O)c(C(=O)O)cn(C4CC4)c3c2F)C[C@H](C)N1,H37Rv,,,Mean MIC,,0.25 µg/mL
COc1ccc(CCC2CCc3ccccc3N2C)cc1OC,MT7,,,MIC,,80 µg/mL
O=C([O-])CCS(=O)(=O)[O-].[Na+].[Na+],H37Rv,,,MIC,,>100 µg/mL
Nc1cc(Cl)cc2c1[nH]c(=O)c1ccccc12,H37Rv,,BACTEC,MIC bound,,>12.5 µg/mL
CO[C@H]1/C=C/O[C@@]2(C)Oc3c(C)c(O)c4c(O)c(c5c(c4c3C2=O)NC2(CCN(CC(C)C)CC2)N=5)=NC(=O)/C(C)=C\C=C\[C@H](C)[C@H](O)[C@@H](C)[C@@H](O)[C@@H](C)[C@H](OC(C)=O)[C@@H]1C,Strain 80 (N518 deletion),,,MIC,,0.063 µg/mL
O=c1oc2ccccc2c(=O)n1-c1ccc([N+](=O)[O-])cc1,CNCTC MY331/88,,,MIC,,16 µM
CCCCc1ccc2nccc(NN)c2c1,H37Rv,VERO,,MIC,,6.25 µg/mL
CO[C@H]1/C=C/O[C@@]2(C)Oc3c(C)c(O)c4c(O)c(c5c(c4c3C2=O)NC2(CCN(CC(C)C)CC2)N=5)=NC(=O)/C(C)=C\C=C\[C@H](C)[C@H](O)[C@@H](C)[C@@H](O)[C@@H](C)[C@H](OC(C)=O)[C@@H]1C,2219 (rifampin-resistant),,,MIC,,0.2 µg/mL
COc1ccc(/C=C/C(=O)c2c(O)cccc2OC)cc1,H37Rv,,,EC50,,<12.5 µg/mL
Cc1oc(C)c2c(N=Nc3ccc([N+](=O)[O-])cc3[N+](=O)[O-])c3ccccc3c(O)c12,H37Rv,,BACTEC,inhibition,12.5 µg/mL,90%
C[C@@H]1[C@H]2C[C@@H](C[C@H]1NCCNCCC(c1ccccc1)c1ccccc1)C2(C)C,,,,MIC,,12.5 µM
NCC[C@H](O)C(=O)N[C@@H]1C[C@H](N)[C@@H](O[C@H]2O[C@H](CN)[C@@H](O)[C@H](O)[C@H]2O)[C@H](O)[C@H]1O[C@H]1O[C@H](CO)[C@@H](O)[C@H](N)[C@H]1O,H37Rv,,,Mean MIC,,0.88 µg/mL
O=C1CCC(c2ccc(-c3ccccc3)cc2)=NN1,,,,MIC,,>10 µg/mL
CC(CO)NCCN[C@@H]1C[C@@H]2C[C@H]([C@H]1C)C2(C)C,,,,MIC,,12.5 µM
Fc1ccccc1CNCCNCCc1ccc(Cl)cc1Cl,,,,MIC,,50 µM
NCCC(=O)O,H37Rv,,,MIC,,>100 µg/mL
COC12OCCN(C)C1=CC(=O)C1(C)N=NCC12,H37Rv,,BACTEC,inhibition,12.5 µg/mL,0%
CCOC([O-])=C([N+](=O)[O-])[N+](=O)[O-].[K+],H37Rv,,,MIC,,100 µg/mL
NCC[C@H](O)C(=O)N[C@@H]1C[C@H](N)[C@@H](O[C@H]2O[C@H](CN)[C@@H](O)[C@H](O)[C@H]2O)[C@H](O)[C@H]1O[C@H]1O[C@H](CO)[C@@H](O)[C@H](N)[C@H]1O,MDR19,,broth dilution / resazurin,MIC,,1 µg/mL
Fc1cccc(CCNCCNC23CC4CC(CC(C4)C2)C3)c1,,,,MIC,,50 µM
CO[C@H]1/C=C/O[C@@]2(C)Oc3c(C)c(O)c4c(O)c(c5c(c4c3C2=O)NC2(CCN(CC(C)C)CC2)N=5)=NC(=O)/C(C)=C\C=C\[C@H](C)[C@H](O)[C@@H](C)[C@@H](O)[C@@H](C)[C@H](OC(C)=O)[C@@H]1C,Isolate 900241 drug-susceptible,,,MIC,,0.063 µg/mL
c1ccc(C(CNCCN2CCCC3CCCCC32)c2ccccc2)cc1,,,,MIC,,25 µM
COc1ccccc1/C=C/C(=O)c1ccccc1O,H37Rv,,,EC50,,>12.5 µg/mL
C=CCC(CCCCCCCCC)C(=O)O,H37Rv,,,MIC,,50 µg/mL
O=C(/C=C/c1ccccc1)c1cc(-c2ccccc2)ccc1O,H37Rv,,,inhibition,12.5 µg/mL,68%
CC1CN(c2cc3c(cc2F)c(=O)c(C(=O)O)cn3-c2ccc(F)cc2F)CCN1,ATCC 35822,,,MIC,,1 µg/mL
CCN(CC)c1cc2oc3cc(N)cc(=N)c-3nc2cc1C,H37Rv,,BACTEC,MIC bound,,≤12.5 µg/mL
CC(C)c1ccc2c(c1)CC[C@H]1[C@](C)(CNCCNCC(C)c3ccccc3)CCC[C@]21C,,,,MIC,,12.5 µM
CC1COc2c(N3CCN(C)CC3)c(F)cc3c(=O)c(C(=O)O)cn1c23,MDR,,,MBC90,,8 µg/mL
CCOc1ccc2c(N/N=C/c3ccc(OC)c4ccccc34)cc(C)nc2c1,H37Rv,VERO,,MIC,,1.56 µg/mL
O=C1CC(c2ccccc2)Oc2cc(Cl)ccc21,,,,inhibition,12.5 µg/mL,0%
Nc1nnc2nc(C(C(=O)/C=C/c3cccc(O)c3)c3nc4nnc(N)n4[nH]c3=O)c(=O)[nH]n12,H37Rv,,BACTEC,inhibition,12.5 µg/mL,0%
NC1CCN(c2nc3c(cc2F)c(=O)c(C(=O)O)cn3-c2ccc(F)cc2F)C1,ATCC 35827,,,MBC,,>8 µg/mL
Fc1ccc(CNCCNCc2ccco2)cc1,,,,MIC,,50 µM
CC1=NNC(=O)C1,,,,MIC,,100 µg/mL
CO[C@H]1/C=C/O[C@@]2(C)Oc3c(C)c(O)c4c(O)c(c(/C=N/N5CCN(C6CCCC6)CC5)c(O)c4c3C2=O)NC(=O)/C(C)=C\C=C\[C@H](C)[C@H](O)[C@@H](C)[C@@H](O)[C@@H](C)[C@H](OC(C)=O)[C@@H]1C,H37Ra,,,Mean MIC,,0.004 µg/mL
Cc1onc(-c2ccccc2)c1C(=O)N1CCCN2C(=O)c3ccccc3C21,H37Rv,,resazurin,inhibition,6.25 µg/mL,4%
CC(CNCCC(c1ccccc1)c1ccccc1)NC1CCCC(C)C1C,,,,MIC,,50 µM
COc1ccc2ccccc2c1/C=N/Nc1cc(C)nc2cc(Cl)ccc12,H37Rv,VERO,,inhibition,12.5 µg/mL,100%
[N-]=[N+]=Nc1ccc(S(=O)(=O)c2ccc(N=[N+]=[N-])cc2)cc1,H37Rv,,,MIC,,>100 µg/mL
CC(C)=CC(=O)NNC(=O)C=C(C)C,,,,MIC,,>200 µg/mL
NC1CCN(c2c(F)cc3c(=O)c(C(=O)O)cn(C4CC4)c3c2Cl)C1,ATCC35838,,,MIC,,0.06 µg/mL
Fc1ccc(CNCCN(Cc2ccccc2)Cc2ccccc2)cc1,,,,MIC,,25 µM
O=C(Nc1ccccc1)C(=O)c1ccccc1C(=O)O,H37Rv,,,MIC,,>100 µg/mL
COc1ccc(CNCCNCC(c2ccccc2)c2ccccc2)c(OC)c1,,,,MIC,,25 µM
CCOC(COc1ccccc1)OCC,H37Rv,,,MIC,,>100 µg/mL
CC(=O)Nc1ccc(/C=N/NC(=S)Nc2cccc3cccnc23)cc1,H37Rv,,BACTEC,MIC bound,,>12.5 µg/mL
Nc1ccccc1S(=O)(=O)NCCO,H37Rv,,,MIC,,>100 µg/mL
CCCCCCCCCCCNCCNCCCCC,,,,MIC,,50 µM
O=C1CCC(=O)N1C1CCCCC1,H37Rv,,,MIC,,>100 µg/mL
CN(C(=S)S(=O)(=O)C12CC3CC(CC(C3)C1)C2)c1ccccc1,H37Rv,,BACTEC,MIC bound,,≤128 µg/mL
O=C1CC(c2ccccc2O)Oc2ccccc21,H37Rv,,,inhibition,12.5 µg/mL,1%
COc1ccc(CCN2C(=O)C(=O)N(c3ccc(C)cc3)C2=O)cc1OC,H37Rv,,BACTEC,MIC bound,,>12.5 µg/mL
CN[C@@H]1[C@@H](O)[C@@H](O[C@@H]2[C@@H](O)[C@H](O[C@H]3O[C@H](CN)CC[C@H]3N)[C@@H](N)C[C@H]2N)OC[C@]1(C)O,H37Rv,,,Median MIC,,6 µg/mL
C/C(=C\C(=O)c1ccccc1)N1CCOCC1,H37Rv,,,MIC,,100 µg/mL
Fc1ccc(CCNCCNCCc2ccccc2F)cc1,,,,MIC,,25 µM
CCCCNC(=S)NNC(=O)c1ccncc1,H37Rv,,resazurin,MIC,,3.13 µg/mL
Cc1ccc2c(=O)n(-c3cccc([N+](=O)[O-])c3)c(=O)oc2c1,CNCTC MY331/88,,,MIC,,4 µM
O=c1c(I)c[nH]cc1I,H37Rv,,,MIC,,100 µg/mL
CC1=CC(=C(c2cc(C)c(O)c(C(=O)O)c2)c2cc(C)c(O)c(C(=O)O)c2)C=C(C(=O)O)C1=O,H37Rv,,BACTEC,MIC bound,,>6.25 µg/mL
CO[C@H]1/C=C/O[C@@]2(C)Oc3c(C)c(O)c4c(O)c(c(/C=N/N5CCN(C/C=C/c6ccccc6)CC5)c(O)c4c3C2=O)NC(=O)/C(C)=C\C=C\[C@H](C)[C@H](O)[C@@H](C)[C@@H](O)[C@@H](C)[C@H](OC(C)=O)[C@@H]1C,2831 (rifampin-sensitive),,,MBC,,0.2 µg/mL
O=C(O)c1ccccc1C1OC(=O)c2ccccc21,H37Rv,,,MIC,,100 µg/mL
O=c1c2ccccc2sc2c([N+](=O)[O-])ccc(NCCNCCO)c12,H37Rv,,BACTEC,inhibition,12.5 µg/mL,100%
NC(=O)c1cccnc1,H37Rv,,,MIC,,500 µg/mL
CC1=C/C(=C(\c2ccccc2)c2cc(C)c(O)c(CNCC(=O)O)c2)C=C(CNCC(=O)O)C1=O,H37Rv,,BACTEC,MIC bound,,>12.5 µg/mL
CCCCCN(CCCCC)Cc1cc(Nc2ccnc3cc(Cl)ccc23)ccc1O.Cl,H37Rv,,,MIC,,>100 µg/mL
NC[C@H]1O[C@H](O[C@H]2[C@H](O)[C@@H](O[C@H]3O[C@H](CO)[C@@H](O)[C@H](N)[C@H]3O)[C@H](N)C[C@@H]2N)[C@H](O)[C@@H](O)[C@@H]1O,TN718 (AY),,,MIC,,>256 µg/mL
CCOC(=O)Cn1sc2ncc([N+](=O)[O-])cc2c1=O,H37Rv,,BACTEC,inhibition,12.5 µg/mL,0%
CCN(CCO)c1ccccc1,H37Rv,,,MIC,,>100 µg/mL

The first 9 rows once more:

smiles,strain or isolate,cells,method,read-out,dose,result
O=C(NCCBr)c1ccc([N+](=O)[O-])cc1,H37Rv,,,MIC,,>100 µg/mL
CC(=O)Nc1ccc(C(=O)NN)cc1,,,,MIC,,100 µg/mL
COc1ccc(/C=N/Nc2cc(C)nc3cc(Cl)ccc23)c2ccccc12,H37Rv,VERO,,inhibition,12.5 µg/mL,100%
CC(=O)C(N=Nc1cccc2c1C(=O)c1ccccc1C2=O)C(=O)Nc1ccc(C)cc1C,H37Rv,,BACTEC,inhibition,12.5 µg/mL,-4%
C=C/C(C)=C/[C@@]1(C)SC(=O)C(C)=C1O,TRC-resistant,,,MIC,,5 µg/mL
CN1c2ccccc2CCC1CCc1ccc2c(c1)OCO2,MT9,,,MIC,,>100 µg/mL
O=C(N/N=C/c1ccccc1)c1cc(Cl)ccc1Cl,,,,MIC,,100 µg/mL
COC(=O)c1cc(Nc2ccc(O)c3c2C(=O)c2c([N+](=O)[O-])ccc(O)c2C3=O)cc(C(=O)OC)c1,H37Rv,,BACTEC,MIC bound,,>12.5 µg/mL
O=C(O)C(O)(C1CCCCC1)C1CCCCC1,H37Rv,,,MIC,,50 µg/mL